Anti-infective test results gathered from many reports (values: NIAID ChemDB through PubChem).

All rows: growth or infection tests; agent: Mycobacterium tuberculosis

MIC bound comes from a single tested concentration.

compound,endpoint,setting,strain or isolate,tested at,method,cell line,value
Cc1cccc(N=Nc2c(O)c3ccccc3[nH]c2=O)c1,inhibition,-,H37Rv,6.25 µg/mL,resazurin,-,42%
O=C(CC(=O)N1N=C(N(c2ccccc2)c2ccccc2)CC1c1ccccc1)Nc1ccccc1Cl,MIC bound,-,H37Rv,-,BACTEC,-,>12.5 µg/mL
CCCCCCCCNC1(C)CC(=O)N(CCCCCCCC)C1=O,MIC,-,H37Rv,-,-,-,≤20 µg/mL
O=C(COc1cnccn1)N/N=c1\scc(-c2ccccc2)n1-c1ccc(Cl)cc1[N+](=O)[O-],MIC,-,H37Rv,-,-,-,5.2 µg/mL
NC(=O)c1cnccn1,MIC,-,Isolate K10551,-,-,-,>500 µg/mL
CO[C@H]1/C=C/O[C@@]2(C)Oc3c(C)c(O)c4c(=O)c(c5oc6cc(N7CCN(C(C)C)CC7)cc(=O)c6nc5c4c3=C2O)NC(=O)/C(C)=C\C=C\[C@H](C)[C@H](O)[C@@H](C)[C@@H](O)[C@@H](C)[C@H](OC(C)=O)[C@@H]1C,MIC,-,3113 (rifampin-sensitive),-,-,-,0.05 µg/mL
Cc1cc(C)c2c(=O)n(CC(O)CN3CCc4ccccc4C3)sc2n1,inhibition,-,H37Rv,12.5 µg/mL,-,-,33%
CCCCOc1ccc(NC(=O)OCC[NH+]2CCCC2)cc1,MIC,-,My 331/88,-,-,-,250 µM
Clc1ccc(-n2ncc(C(c3ccccc3)n3ccnc3)c2-c2ccccc2)c(Cl)c1,MIC50,-,ATCC 27294,-,-,-,11.7 µM
O=C(Nc1ccc(Cl)c(Cl)c1)c1ccc(Cl)cc1OS(=O)(=O)c1ccccc1,MIC,21 d,H37Rv,-,-,-,8 µM
Cc1ccc(Nc2cc(=O)[nH]c(N)n2)cc1C,MIC bound,-,H37Rv,-,BACTEC,-,>12.5 µg/mL
COc1ccc(N=Nc2c(O)c3ccc(Cl)cc3[nH]c2=O)cc1,inhibition,-,H37Rv,6.25 µg/mL,resazurin,-,4%
CCCCCCCCNC1CC(=O)NC1=O,MIC,-,H37Rv,-,-,-,≤20 µg/mL
S=C(S)Nc1ccc(Cc2ccc(NC(=S)S)cc2)cc1,inhibition,-,H37Rv,12.5 µg/mL,BACTEC,-,89%
Clc1ccccc1-c1c(C(c2ccccc2)n2ccnc2)cnn1-c1ccccc1,MIC50,-,ATCC 35828 (pyrazinamide-resistant),-,-,-,27.3 µM
CC(C)n1c(-c2ccc(O)cc2)cs/c1=N\NC(=O)COc1cnccn1,MIC,-,H37Rv,-,-,-,11 µg/mL
Fc1ccc(-n2ncc(C(c3ccccc3)n3ccnc3)c2-c2ccccc2)cc1,MIC50,-,ATCC 27294,-,-,-,65.3 µM
NC(N)=NCCN1CC2CCC(CC2)C1.NC(N)=NCCN1CC2CCC(CC2)C1.O=S(=O)(O)O,MIC bound,-,H37Rv,-,BACTEC,-,>12.5 µg/mL
CCOc1ccc(-n2c(-c3ccc(C)cc3)cs/c2=N\NC(=O)COc2cnccn2)cc1,MIC,-,H37Rv,-,-,-,12 µg/mL
Fc1ccc(-c2c(C(c3ccccc3)n3ccnc3)cnn2-c2ccc(F)cc2)cc1,MIC90,-,ATCC 35837 (ethambutol-resistant),-,-,-,≥100 µM
CCOC(=O)Cn1sc2nc(C)cc(C)c2c1=O,MIC,-,H37Rv,-,-,-,<12.5 µg/mL
COc1cc(O)c(C(=O)/C=C/c2cc(OC)c(OC)c(OC)c2)c(O)c1,EC50,-,-,-,-,-,>12.5 µg/mL
NNC(=O)C(=O)N=Cc1ccc([N+](=O)[O-])o1,MIC,-,EMB-R,-,-,-,3.1 µg/mL
CO[C@H]1/C=C/O[C@@]2(C)Oc3c(C)c(O)c4c(=O)c(c5oc6cc(N7CCN(CC(C)C)CC7)cc(=O)c6nc5c4c3=C2O)NC(=O)/C(C)=C\C=C\[C@H](C)[C@H](O)[C@@H](C)[C@@H](O)[C@@H](C)[C@H](OC(C)=O)[C@@H]1C,MIC,-,3125 (rifampin-sensitive),-,-,-,0.012 µg/mL
COC(=O)Nc1cn2nc(C)sc2n1,inhibition,-,H37Rv,12.5 µg/mL,BACTEC,-,0%
C=CCN=C(N=Nc1c(O)[nH]c2ccc(Br)cc12)SCC(=O)c1ccc(Br)cc1,EC50,-,H37Rv,-,-,-,<12 µg/mL
c1ccc(-c2c(C(c3ccccc3)n3ccnc3)cnn2-c2ccccc2)cc1,MIC50,-,ATCC 35822 (isoniazid-resistant),-,-,-,43.3 µM
Cl.Nc1ccc2ccc3ccc(N)nc3c2n1,MIC bound,-,H37Rv,-,BACTEC,-,>12.5 µg/mL
CN[C@@H]1[C@H](O[C@H]2[C@H](O[C@H]3[C@H](O)[C@@H](O)[C@H](N=C(N)N)[C@@H](O)[C@@H]3N=C(N)N)O[C@@H](C)[C@]2(O)C=O)O[C@@H](CO)[C@H](O)[C@H]1O,MIC,-,Isolate TN6515,-,-,-,0.2 µg/mL
CCCn1c(C)nc2cc(C(F)(F)F)cc([N+](=O)[O-])c21,MIC bound,-,H37Rv,-,resazurin,-,>6.25 µg/mL
CCCCCCCCCN1C(=O)CC(Nc2ccc(N3CCCCC3)cc2)C1=O,MIC,-,H37Rv,-,-,-,≤20 µg/mL
Nc1nc(CCC(=O)O)cs1,inhibition,-,H37Rv,6.25 µg/mL,BACTEC,-,0%
Cc1cc(C)c2c(=O)n(CC(O)CN3CCCCC3)sc2n1,inhibition,-,H37Rv,12.5 µg/mL,-,-,0%
O=C1NC(NNC(=O)c2ccncc2)=N/C1=C\c1cccc(Cl)c1,MIC,-,ATCC 35838 (rifampin-resistant),-,-,-,≤0.39 µg/mL
CCN(CC)C(=S)Sc1nsc(SC(=S)N(CC)CC)c1C#N,inhibition,-,H37Rv,128 µg/mL,BACTEC,-,100%
O=C1NC(NNC(=O)c2ccncc2)=N/C1=C\c1ccc(Cl)cc1,MIC,-,H37Rv,-,resazurin,VERO,3.13 µg/mL
CS1(C)=NC(=O)C2=C(N=1)c1ccccc1S2(=O)=O,inhibition,-,H37Rv,6.25 µg/mL,resazurin,-,24%
O=C(Nc1ccc(Br)cc1)c1ccc(Br)cc1OS(=O)(=O)c1ccccc1,MIC,14 d,H37Rv,-,-,-,8 µM
Cn1c(-c2ccc(Br)cc2)cs/c1=N\N=C1/C(=O)Nc2ccccc21.O,MIC,-,H37Rv,-,-,-,>12.5 µg/mL
Fc1ccccc1-c1c(C(c2ccccc2)n2ccnc2)cnn1-c1ccccc1,MIC90,-,ATCC 35837 (ethambutol-resistant),-,-,-,≥100 µM
CCCCCCCCCN1C(=O)CC(SCCNC(=O)c2ccc(CCCC)cc2)C1=O,MIC,-,H37Ra,-,-,-,≤20 µg/mL
Fc1ccc(-n2ncc(C(c3ccccc3)n3ccnc3)c2-c2ccccc2)c(F)c1,MIC90,-,ATCC 35837 (ethambutol-resistant),-,-,-,≥100 µM
CCCCCCCOc1ccccc1NC(=O)OCCN1CCOCC1,MIC,-,My 331/88,-,-,-,32 µM
Cc1ccc2nnn3c(=N)nc(N)nc3c2c1,inhibition,-,H37Rv,12.5 µg/mL,BACTEC,-,0%
O=c1[nH]c2c(Cl)c(Cl)ccc2c(O)c1N=Nc1ccccc1,inhibition,-,H37Rv,6.25 µg/mL,resazurin,-,85%
O=C(Nc1cccc(Cl)c1)c1cc(Cl)ccc1OS(=O)(=O)c1ccccc1,MIC,14 d,H37Rv,-,-,-,4 µM
O=C(/C=C/c1ccccc1I)c1ccccc1O,EC50,-,-,-,-,-,>12.5 µg/mL
Cc1cc(C)c2c(=O)n(CO)sc2n1,inhibition,-,H37Rv,12.5 µg/mL,-,-,61%
CCCCCCCOc1cccc(NC(=O)OCCN2CCCCCC2)c1,MIC,-,My 331/88,-,-,-,4 µM
CCCCCCCCCN1C(=O)C=C(C)C1=O,MIC,-,H37Rv,-,-,-,≤20 µg/mL
COc1ccc2c(c1)Sc1c(Cl)c3c(c(Cl)c1=N2)Sc1cc(OC)ccc1N=3,MIC bound,-,H37Rv,-,BACTEC,-,>12.5 µg/mL
CC(C)Cn1c(-c2ccccc2)cs/c1=N\NC(=O)COc1cnccn1,MIC,-,H37Rv,-,-,-,8.7 µg/mL
NNC(=O)c1ccncc1,MIC,-,MDR-3948 (MDR),-,-,-,3.2 µg/mL
O=c1[nH]c2ccccc2c(O)c1N=Nc1ccccc1,inhibition,-,H37Rv,6.25 µg/mL,resazurin,-,97%
CCCCN=C(N=Nc1c(O)[nH]c2ccc(Br)cc12)SCC(=O)c1ccc(Br)cc1,EC50,-,H37Rv,-,-,-,<12 µg/mL
Cc1ccc(NC(=O)c2ccc(Cl)cc2)cc1Cl,MIC,-,H37Rv,-,resazurin,-,>12.5 µg/mL
CCCCCCOc1cccc(NC(=O)OCCN2CCOCC2)c1,MIC,-,My 331/88,-,-,-,16 µM
O=C1NC(NNC(=O)c2ccncc2)=N/C1=C\c1ccccc1Cl,MIC,-,H37Rv,-,resazurin,VERO,3.13 µg/mL
Cc1cc(C)c2c(n1)S(=O)(=O)N(CC(=O)c1ccccc1)C2=O,EC50,-,H37Rv,-,-,-,>12.5 µg/mL
Clc1ccc(-n2ncc(C(c3ccccc3)n3ccnc3)c2-c2ccccc2)cc1,MIC50,-,ATCC 27294,-,-,-,10.7 µM
CC(=O)OC(C)(C)/C=C/C(=O)[C@](C)(O)[C@H]1[C@H](O)C[C@@]2(C)[C@@H]3CC=C4[C@@H](C[C@H](O)C(=O)C4(C)C)[C@]3(CO)C(=O)C[C@]12C,inhibition,-,H37Rv,12.8 µg/mL,BACTEC,-,21%
COc1ccc2[nH]c(=O)c(N=Nc3ccccc3)c(O)c2c1,MIC,-,H37Rv,-,resazurin,-,>6.25 µg/mL
CCCCn1c(-c2ccccc2)cs/c1=N\N=C1/C(=O)Nc2ccccc21,MIC,-,H37Rv,-,-,-,>12.5 µg/mL
CCOc1ccccc1NC(=O)OCCN(C)C,MIC,-,My 331/88,-,-,-,1000 µM
CC(CC(O)(c1cccs1)c1cccs1)N(C)C,MIC bound,-,H37Rv,-,-,-,>6.25 µg/mL
Cc1ccc(N=Nc2c(O)c3cccc(Cl)c3[nH]c2=O)cc1,inhibition,-,H37Rv,6.25 µg/mL,resazurin,-,34%
CCCCCCOc1cccc(NC(=O)OCC[NH+]2CCCC2)c1,MIC,-,My 331/88,-,-,-,32 µM
CC1=CC(=O)N(CC2CCC3CC2C3(C)C)C1=O,MIC,-,H37Rv,-,-,-,≤20 µg/mL
S=C(S)N1CCNCC1,MIC bound,-,H37Rv,-,BACTEC,-,>12.5 µg/mL
CCCCCCCOc1ccccc1NC(=O)OCCN1CCCCC1,MIC,-,My 331/88,-,-,-,16 µM
CC(C)=CCOc1c2ccoc2cc2oc(=O)ccc12,MIC100,-,H37Rv,-,resazurin,-,100 µg/mL
CCCCn1c(-c2ccc([N+](=O)[O-])cc2)cs/c1=N\N=C1/C(=O)Nc2ccc(Br)cc21,inhibition,-,H37Rv,12 µg/mL,-,-,94%
CC(=O)Nc1ccc(/C=N/NC(N)=S)cc1I,MIC,-,-,-,-,-,<6.25 µg/mL
CCCCCCCCCN1C(=O)CC(SCCNC(=O)C2CC2)C1=O,MIC,-,H37Rv,-,-,-,≤20 µg/mL
O=C1CC(c2ccccc2Br)Oc2ccccc21,inhibition,-,-,12.5 µg/mL,-,-,23%
CCOC(=O)C(/C=N/c1[nH]ncc1C#N)=C(/C(=O)OCC)c1ccc(O)cc1,inhibition,-,H37Rv,12.5 µg/mL,BACTEC,-,0%
CCC1CN(c2c(F)cc3c(=O)c(C(=O)O)cn(C4CC4)c3c2OC)CCN1,MIC,-,Isolate TN7791,-,-,-,0.1 µg/mL
O=C1NC(NNC(=O)c2ccncc2)=N/C1=C\c1ccc(Cl)cc1Cl,EC50,-,H37Rv,-,resazurin,-,>12.5 µg/mL
CCCCOc1ccccc1NC(=O)OCCN1CCCCC1,MIC,-,My 331/88,-,-,-,125 µM
CC(=O)Nc1ccc(/C=N/NC(N)=S)cc1F,MIC,-,Ciprofloxacin-resistant,-,-,-,≤0.1 µg/mL
O=C(Nc1ccc(C(F)(F)F)cc1)c1cc(Cl)ccc1OS(=O)(=O)c1ccccc1,MIC,21 d,H37Rv,-,-,-,1 µM
C=CCNC(=S)NNC(=O)c1ccncc1,MIC,-,H37Rv,-,resazurin,-,6.25 µg/mL
CCCCCCCCCN1C(=O)CC(NCCN(CCCC)CCCC)C1=O,MIC,-,Clinical isolate (isoniazid-resistant),-,-,-,≤20 µg/mL
C=CCNC(=S)N=Nc1c(O)[nH]c2ccccc12,inhibition,-,H37Rv,12 µg/mL,-,-,24%
CC1COc2c(N3CCN(C)CC3)c(F)cc3c(=O)c(C(=O)O)cn1c23,MIC90,-,ATCC 35822 (isoniazid-resistant),-,-,-,3.4 µM
COc1ccc(C(=O)/C=C/c2cccnc2)cc1,EC50,-,H37Rv,-,-,-,>12.5 µg/mL
CCCCCCCCCN1C(=O)CC(CC)C1=O,MIC,-,Clinical isolate (isoniazid-resistant),-,-,-,≤20 µg/mL
CC(=O)C1(C)C(=O)N(c2ccc([N+](=O)[O-])cc2)C(=O)N1c1ccc([N+](=O)[O-])cc1,MIC bound,-,H37Rv,-,BACTEC,-,>12.5 µg/mL
CC[C@H]1OC(=O)[C@H](C)[C@@H](O[C@H]2C[C@@](C)(OC)[C@@H](O)[C@H](C)O2)[C@H](C)[C@@H](O[C@@H]2O[C@H](C)C[C@H](N(C)C)[C@H]2O)[C@](C)(OC)C[C@@H](C)C(=O)[C@H](C)[C@@H](O)[C@]1(C)O,MIC,-,S-24M (susceptible),-,-,-,>8 µg/mL

Blank or dashed fields: not listed here. Inhibition is in % at the dose shown (toxicity tests: loss of growth or viability). Lines come from different laboratories, so protocols vary. MIC50, MIC90 and the like: level of inhibition, or share of isolates inhibited. ECn: concentration that inhibits the pathogen or its effect by n%.